Measured values published in patent US8329658B2, “Arylalkyl and heteroarylalkyl derivatives of cyclosporine A for the treatment and prevention of viral infection” (Scynexis, Inc., priority 2005, dated 2012).

Tested on: HIV-1IIIB
Assay: HIV MTS cytoprotection assay in CEM-SS cells
Assay type: cell-based, human immunodeficiency virus-1 (HIV)
Settings: selectivity index, cytotoxicity IC50 / HIV EC50, NS is no significant activity
Experimental: The compounds of the present invention were tested for antiretroviral activity against human immunodeficiency virus-1 (HIV) using infection of the human T-lymphoblastoid cell line, CEM-SS, with the HIV strain HIV-1IIIB (Weislow et al., 1989, J. Natl. Cancer Inst. 81, 577-586). In this MTS cytoprotection assay, each experiment included cell control wells (cells only), virus control wells (cells plus virus), drug toxicity wells (cells plus drug only), drug colorimetric control wells (drug only) as well as experimental wells (drug plus cells plus virus). Compounds were first dissolved in DMSO and tested using six half-log dilutions, starting with a high concentration of either 20 or 2 μM. […] was added to each well in a volume of 50 μL, the amount of virus determined to give approximately 90% cell killing at 6 days post-infection. At assay termination, assay plates were stained with the soluble tetrazolium-based dye MTS (CellTiter 96 Reagent, Promega) to determine cell viability and quantify compound toxicity. MTS is metabolized by the mitochondria enzymes of metabolically active cells to yield a soluble formazan product, providing a quantitative analysis of cell viability and compound cytotoxicity. The assay was validated in parallel experiments using Zidovudine (3′-azido-3′-deoxythymidine or AZT) as a positive control. The assay included determinations of compound EC50 (concentration inhibiting virus replication by 50%), IC50 (concentration resulting in 50% inhibition of cell growth) and a selectivity index (IC50/EC50).

Compound | Selectivity IC50/EC50
3-benzyloxycyclosporin [Compound B] | >52
C/C=C/C[C@@H](C)[C@@H](O)[C@H]1C(=O)N[C@@H](CC)C(=O)N(C)C(OCc2cccs2)C(=O)N(C)[C@@H](CC(C)C)C(=O)N[C@@H](C(C)C)C(=O)N(C)[C@@H](CC(C)C)C(=O)N[C@@H](C)C(=O)N[C@H](C)C(=O)N(C)[C@@H](CC(C)C)C(=O)N(C)[C@@H](CC(C)C)C(=O)N(C)[C@@H](C(C)C)C(=O)N1C (stereo partly drawn) [C, 3-[(thiophene-2-yl)methoxy]cyclosporin] | >22
CC=CCC(C)C(O)C1C(=O)NC(CC)C(=O)N(C)C(SCc2ccccc2)C(=O)N(C)C(CC(C)C)C(=O)NC(C(C)C)C(=O)N(C)C(CC(C)C)C(=O)NC(C)C(=O)NC(C)C(=O)N(C)C(CC(C)C)C(=O)N(C)C(CC(C)C)C(=O)N(C)C(C(C)C)C(=O)N1C (stereo not drawn) [Compound A, 3-benzylthiocyclosporin] | >37
C/C=C/C[C@@H](C)[C@@H](O)[C@H]1C(=O)N[C@@H](CC)C(=O)N(C)C(OCc2ccoc2)C(=O)N(C)[C@@H](CC(C)C)C(=O)N[C@@H](C(C)C)C(=O)N(C)[C@@H](CC(C)C)C(=O)N[C@@H](C)C(=O)N[C@H](C)C(=O)N(C)[C@@H](CC(C)C)C(=O)N(C)[C@@H](CC(C)C)C(=O)N(C)[C@@H](C(C)C)C(=O)N1C (stereo partly drawn) [Compound E, 3-[(furan-3-yl)methoxy]cyclosporin] | >22
C/C=C/C[C@@H](C)[C@@H](O)[C@H]1C(=O)N[C@@H](CC)C(=O)N(C)C(OCc2ccco2)C(=O)N(C)[C@@H](CC(C)C)C(=O)N[C@@H](C(C)C)C(=O)N(C)[C@@H](CC(C)C)C(=O)N[C@@H](C)C(=O)N[C@H](C)C(=O)N(C)[C@@H](CC(C)C)C(=O)N(C)[C@@H](CC(C)C)C(=O)N(C)[C@@H](C(C)C)C(=O)N1C (stereo partly drawn) [D, 3-[(furan-2-yl)methoxy]cyclosporin] | >34
C/C=C/C[C@@H](C)[C@@H](O)[C@H]1C(=O)N[C@@H](CC)C(=O)N(C)C(OCc2ccsc2)C(=O)N(C)[C@@H](CC(C)C)C(=O)N[C@@H](C(C)C)C(=O)N(C)[C@@H](CC(C)C)C(=O)N[C@@H](C)C(=O)N[C@H](C)C(=O)N(C)[C@@H](CC(C)C)C(=O)N(C)[C@@H](CC(C)C)C(=O)N(C)[C@@H](C(C)C)C(=O)N1C (stereo partly drawn) [G, 3-[(thiophene-3-yl)methoxy]cyclosporin] | >7
